Data as given in PubChem BioAssay AID1259414 (Drosophila RNAi Screening Center, 2018).

- Aim: 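Fly genes that alter Wolbachia amount inside host cells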 (primary screen)
- System: Drosophila JW18 cells infected with Wolbachia
- Reagent: long dsRNA against Drosophila genes, 0.25 µg dsRNA per well of a 384-well plate
- Timing: 5 days
- Treatment: cells persistently infected with Wolbachia before knock-down; no added drug
- Measurement: 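Automated imaging of bacterial rRNA staining divided by host cell count, reported as plate-normalised robust z-score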
- Reading the numbers: Wolbachia per cell robust z: higher = more Wolbachia per host cell than the plate typical
- Rule for the call: 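Active if absolute robust z reaches 1.5 in two or more of three replicates, leaving out multi- or no-target dsRNAs, genes unexpressed in JW18 and A1 wells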
In all, the deposit lists about 24,000 reagents; this is a random part of those that have a named target and a result. In the full data, about 1,210 (5%) got an active call. 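Inactive calls also include excluded dsRNAs with several or no targets, genes unexpressed in JW18, and well A1, regardless of score.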 A plus sign joins genes that one reagent is predicted to hit.

target gene | dsRNA | Wolbachia per cell robust z, rep 1 | Wolbachia per cell robust z, rep 2 | Wolbachia per cell robust z, rep 3 | Outcome
Smyd4-2 (GeneID 39414) | DRSC10126 | -4.05 | -5.21 | -7.03 | inactive
Smyd4-2 (GeneID 39414) | DRSC25934 | -0.702 | -0.316 | -0.708 | inactive
ND-B15 (GeneID 36640) | DRSC06199 | 0.0609 | -0.146 | -2.61 | inactive
scpr-C + scpr-B + scpr-A | DRSC15715 | -1.42 | -0.1 | -0.858 | inactive
pasha (GeneID 43728) | DRSC15295 | -0.071 | -0.108 | -1.45 | inactive
pasha (GeneID 43728) | DRSC27821 | -0.281 | 1.5 | 1.25 | inactive
mRpL41 (GeneID 36688) | DRSC06257 | -0.773 | -2.97 | 0.77 | inactive
mRpL41 (GeneID 36688) | DRSC29395 | 0.66 | -0.456 | 0.22 | inactive
mRpL41 (GeneID 36688) | DRSC39029 | -4.29 | -0.856 | -0.79 | inactive
Ctps + CG45071 | DRSC10728 | 0.565 | 1.25 | -0.137 | inactive
CG34140 + Mkp | DRSC26000 | -2.03 | 0.0993 | 0.288 | inactive
CG34247 (GeneID 5740480) | DRSC09933 | -0.992 | -7.81 | 0.939 | inactive
CG10916 (GeneID 37081) | DRSC06012 | -4.5 | -0.836 | -6.63 | active
CG31954 (GeneID 33572) | DRSC00580 | -0.733 | 0.109 | -0.777 | inactive
CG31954 (GeneID 33572) | DRSC28191 | -0.245 | 0.0254 | -0.476 | inactive
CG43307 (GeneID 12798569) | DRSC00893 | 1.17 | 0.682 | -0.055 | inactive

Continued, starting with the last 4 of the part before.
target gene | dsRNA | Wolbachia per cell robust z, rep 1 | Wolbachia per cell robust z, rep 2 | Wolbachia per cell robust z, rep 3 | Outcome
CG10916 (GeneID 37081) | DRSC06012 | -4.5 | -0.836 | -6.63 | active
CG31954 (GeneID 33572) | DRSC00580 | -0.733 | 0.109 | -0.777 | inactive
CG31954 (GeneID 33572) | DRSC28191 | -0.245 | 0.0254 | -0.476 | inactive
CG43307 (GeneID 12798569) | DRSC00893 | 1.17 | 0.682 | -0.055 | inactive
gt (GeneID 31227) | DRSC23119 | 0.76 | 0.944 | 1.38 | inactive
gt (GeneID 31227) | DRSC28482 | 0.576 | 0.953 | 1 | inactive
CG6409 (GeneID 39220) | DRSC10630 | 0.81 | 0.497 | 0.482 | inactive
CG6409 (GeneID 39220) | DRSC22330 | -1.17 | -0.0153 | -1.09 | inactive
CG6409 (GeneID 39220) | DRSC27637 | 0.406 | 1.29 | -0.53 | inactive
Sfp60F (GeneID 8673980) | DRSC40629 | -0.416 | 0.0611 | 0.169 | inactive
CG9961 (GeneID 33459) | DRSC23343 | -4.12 | -7.04 | -1.3 | active
CG9961 (GeneID 33459) | DRSC25842 | 0.538 | 0.464 | -0.0452 | inactive
CG9961 (GeneID 33459) | DRSC41582 | -0.0112 | -1.42 | -0.537 | inactive
verm (GeneID 40149) | DRSC11038 | 0.0819 | -1.76 | -4.44 | inactive
verm (GeneID 40149) | DRSC24665 | 0.385 | 0.291 | -0.462 | inactive
Nt5a (GeneID 38148) | DRSC08561 | 0.173 | 0.228 | -0.345 | inactive
yl (GeneID 32367) | DRSC20387 | -0.243 | 0.302 | 0.381 | inactive
yl (GeneID 32367) | DRSC29027 | -0.42 | 0.385 | -0.0626 | inactive
ssh (GeneID 42986) | DRSC16730 | 0.589 | -0.15 | 1.03 | inactive
ssh (GeneID 42986) | DRSC28782 | 0.0772 | 1.23 | 0.385 | inactive
Dok (GeneID 31667) | DRSC18204 | 0.762 | 1.2 | 0.657 | inactive
Dok (GeneID 31667) | DRSC23455 | 0.342 | 0.164 | 0.171 | inactive
spz6 (GeneID 37956) | DRSC04533 | 0.596 | -1.88 | -0.8 | inactive
CG32302 (GeneID 38293) | DRSC08340 | -3.95 | 0.64 | 0.822 | inactive
PIG-B (GeneID 38446) | DRSC08216 | -0.224 | 1.24 | 0.566 | inactive
PIG-B (GeneID 38446) | DRSC22598 | 0.21 | -0.0496 | 0.755 | inactive
CG14416 (GeneID 31273) | DRSC18639 | 0.767 | 0.183 | 1.16 | inactive
CG14416 (GeneID 31273) | DRSC29804 | 0.207 | 0.205 | 0.566 | inactive
RpL10Ab (GeneID 39338) | DRSC10798 | 1.85 | 2.86 | 2.7 | active
RpL10Ab (GeneID 39338) | DRSC26988 | 1.77 | 3.18 | 4.77 | active
CG10550 (GeneID 43061) | DRSC14251 | 1.24 | 0.116 | -0.694 | inactive
CG4957 (GeneID 34374) | DRSC02793 | 1.17 | 0.229 | 0.795 | inactive
CG4957 (GeneID 34374) | DRSC29454 | -0.678 | -0.405 | -1.57 | inactive
Rca1 (GeneID 33959) | DRSC03407 | 2.69 | 4.54 | 5.7 | active
